Results of unrelated studies side by side (data: NIAID ChemDB).

Shared fields: tests in culture; agent: Mycobacterium kansasii

Rows are shuffled and stem from different studies. Blank or dashed fields: not listed here. Zones are inhibition diameters on agar. A number after MIC or MFC names an inhibition level or a share of isolates.

smiles,read-out,read by,strain or isolate,conditions,dose,result
CCCCc1cnc(C(=O)/C=C/c2ccccc2Br)cn1,MIC,absorbance,Hauduroy,,,25 µg/mL
O=C(Nc1ccc(Br)cc1)c1cc(Cl)ccc1OP(=O)(c1ccccc1)c1ccccc1,MIC,,My 235/80,7 d,,4 µM
O=C(N[C@H]([C@@H](O)CNCc1cccc(I)c1)C(F)(F)c1ccccc1)OCc1ccccc1,MIC,broth dilution,T,,,>256 µg/mL
O=C(Nc1ccccc1)c1ccccc1OP(=O)(OCc1ccccc1)OCc1ccccc1,MIC,,My 235/80,21 d,,500 µM
CCCCNC(=O)Nc1ccc(S(=O)(=O)Nc2cc(C)on2)cc1,MIC100,broth dilution / absorbance,6509/96 clinical isolate,7 d,,250 µM
O=C(Nc1ccc(C(F)(F)F)cc1)c1cc(Cl)ccc1OP(=O)(c1ccccc1)c1ccccc1,MIC,,My 6509/96,21 d,,4 µM
CCCN(CCC)C(=O)c1cc(C)cc(C(=O)N[C@@H]([C@@H](O)CNCc2cccc(I)c2)C(F)(F)c2ccccc2)c1,zone,agar diffusion,262,,100 µg/disc,0 mm
Cc1cc(NS(=O)(=O)c2ccc(NC(=O)Nc3ccc(S(=O)(=O)Nc4cc(C)on4)cc3)cc2)no1,MIC100,broth dilution / absorbance,235/80,7 d,,2 µM
O=C(Nc1ccccc1)c1ccccc1OP(=O)(c1ccccc1)c1ccccc1,MIC,,My 235/80,21 d,,250 µM
CCCCCCCCCCNC(=O)Nc1ccc(S(=O)(=O)Nc2cc(C)on2)cc1,MIC100,broth dilution / absorbance,6509/96 clinical isolate,21 d,,125 µM
CCCc1cnc(C(=O)/C=C/c2ccc(Br)cc2)cn1,MIC,absorbance,Hauduroy,,,12.5 µg/mL
CCCCCCNC(=O)Nc1ccc(S(=O)(=O)Nc2cc(C)on2)cc1,MIC100,broth dilution / absorbance,235/80,7 d,,250 µM
O=C(Nc1ccc(Br)cc1)c1cc(Cl)ccc1OP(=O)(Oc1ccccc1)Oc1ccccc1,MIC,,My 235/80,14 d,,8 µM
CC(C)c1cnc(C(=O)/C=C/c2ccc(Cl)cc2)cn1,MIC,absorbance,Hauduroy,,,6.25 µg/mL
O=C(Nc1ccc(Cl)c(Cl)c1)c1cc(Cl)ccc1OP(=O)(OCc1ccccc1)OCc1ccccc1,MIC,,My 6509/96,7 d,,125 µM
CC(C)(C)c1cnc(C(=O)/C=C/c2ccccc2Br)cn1,MIC,absorbance,Hauduroy,,,12.5 µg/mL
CC(=O)NC[C@H]1CN(c2ccc(N3CCOCC3)c(F)c2)C(=O)O1,MIC50,,104 clinical isolates,,,0.5 µg/mL
O=C1c2cc(Br)ccc2OP(=O)(c2ccccc2)N1c1ccc(C(F)(F)F)cc1,MIC,,My 235/80,21 d,,8 µM
CCCCCCCNC(=O)Nc1ccc(S(=O)(=O)Nc2cc(C)on2)cc1,MIC100,broth dilution / absorbance,235/80,14 d,,8 µM
O=C(/C=C/c1ccc(F)cc1)c1cnccn1,MIC,absorbance,Hauduroy,,,12.5 µg/mL
O=C(N[C@H]([C@H](O)CNCc1cccc(I)c1)C(F)(F)c1ccccc1)OCc1ccccc1,MIC,broth dilution,T,,,128 µg/mL

A second listing of 2 rows from above:

smiles,read-out,read by,strain or isolate,conditions,dose,result
CCCN(CCC)C(=O)c1cc(C)cc(C(=O)N[C@@H]([C@@H](O)CNCc2cccc(I)c2)C(F)(F)c2ccccc2)c1,zone,agar diffusion,262,,100 µg/disc,0 mm
CCCCCCCNC(=O)Nc1ccc(S(=O)(=O)Nc2cc(C)on2)cc1,MIC100,broth dilution / absorbance,235/80,14 d,,8 µM